From ChEMBL document CHEMBL4431312, “Development of an Orally Available and Central Nervous System (CNS) Penetrant Toxoplasma gondii Calcium-Dependent Protein Kinase 1 (TgCDPK1) Inhibitor with Minimal Human Ether-a-go-go-Related Gene (hERG) Activity for the Treatment of Toxoplasmosis” (J Med Chem, 2016) come the findings set out here.

The IC50 is the concentration that inhibits the measured activity by half. Low values mean greater potency, high ones weaker potency.

The structures appear in SMILES notation.

The experiment concerns the target Proto-oncogene tyrosine-protein kinase Src (Gallus gallus, UniProt P00523).

Consider `CN1CCC(Cn2nc(-c3ccc4cc(OCC(C)(C)O)ccc4c3)c3c(N)ncnc32)CC1`, for which the half-inhibitory concentration (IC50) was over 10 µM.
